Assay [1] concerns the target Guanylate cyclase C (human), P25092. The assay is described as follows: cell-based or functional assay.
Assay [2] shares this target. Put plainly: competitive radioligand binding, [125I]-STp displacement on intact T84 cells.
For assay [3] the target is unchanged.

Several values for one entry are separate records, joined by “and”; a condition that tells them apart may be missing. Identical values can stand only once.

From patent US20150119328A1 come the findings set out here.

B1: Peptide 1 (peptide)
peptide: CCELCCNPACTGCY
modifications: not checked
By Ki is commonly meant the equilibrium dissociation constant of an inhibitor or competing ligand from its target. On to B1, for which, in assay [1], the EC50, cGMP response in T84 cells, pH 5 stood at 13.4 nM; the EC50, cGMP response in T84 cells, pH 8 turned out to be 114 nM; the Ratio EC50 pH 8/EC50 pH 5, cGMP response in T84 cells was 8.5. The Ratio Ki pH 8/Ki pH 5 in assay [2] stood at 0.69. Besides, the Ki in assay [3] is 2.9 nM and 2 nM.
